Source: patent US9512175B2, “Macrocyclic inhibitors of flaviviridae viruses” (Gilead Sciences, Inc., priority 2012, dated 2016)

Tested on: HCV replicon (Replicon 1a)
Test: anti-HCV activity in Huh-7 cell line harboring a HCV replicon (Replicon 1a)
Type: cell-based
Conditions: human hepatoma Huh-7 HCV replicon cells, 3 days, luciferase readout

Compound	Replicon 1a % inhibition at 1 μM [%]
CC(C)[C@@H]1NC(=O)C(C)(C(C)(C)O)/C=C/c2ccc3ccc(nc3c2)[C@@H](C)OC(=O)[C@@H]2CCCN(N2)C(=O)[C@H](C)NC1=O (single isomer, unassigned)	100
COCC1NC(=O)[C@H](C(C)C)NC(=O)C(C)(C)/C=C/c2ccc3ccc(nc3c2)[C@@H](C)OC(=O)[C@@H]2CCCN(N2)C1=O (single isomer, unassigned)	35
CC(C)[C@@H]1NC(=O)C2(/C=C/c3ccc4ccc(nc4c3)[C@@H](C)OC(=O)[C@@H]3CCCN(N3)C(=O)[C@H](C)NC1=O)CCOC(C)(C)C2 (stereo partly drawn) [Compound 123]	100
